## Share of PSTVd loop 15 variants by leaf site

Region: loop 15 of PSTVd (intermediate strain), upper and lower strand joined, each 5' to 3', the first 7 letters being the upper strand, closing pairs included. Wild type: GGAAACCGCUACUAC. Varied positions (N): GGAAACCGNNNNNNC.

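Three N. benthamiana plants were inoculated with the whole mutant pool. Progeny were sequenced from the inoculated region (day 5), the margin of the inoculated leaf (day 10) and systemic leaves (day 12).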

Numbers give reads per thousand; 0 = not seen among the reads, higher = more abundant. Each site shows the three plants. "Pool" is the share in the plasmid pool used as inoculum, on the same scale. The inoculated region was read from the minus strand, the other sites from the plus strand. Samples held 43,870 to 66,106 reads, so the smallest values rest on one or two reads. The authors trace changes outside the varied positions to PCR and sequencing errors or to mutation in the plant; presence does not show that a variant is infectious alone. For reference, wild type rose from 33.9 per thousand in the pool to 202, 200, 159 (inoculated region), 724, 746, 710 (leaf margin) and 856, 883, 880 (systemic leaves).

With GGAAACCGCAAAACC (pool 0.304) the assay gave inoculated region 0.131 / 0.0803 / 0.0381; leaf margin 0.0162 / 0.0223 / 0.0200; systemic leaves 0 / 0 / 0.
With GGAAACCGCAGGGAC (pool 0.320) the assay gave inoculated region 0.0655 / 0.0482 / 0.0762; leaf margin 0 / 0 / 0.0401; systemic leaves 0 / 0 / 0.
With GGAAACCGCCGGAAC (pool 0.256) the assay gave inoculated region 0.295 / 0.257 / 0.381; leaf margin 0.162 / 0.0891 / 0.160; systemic leaves 0.0644 / 0.121 / 0.0228.
With GGAAACCGGAGGCCC (pool 0.208) the assay gave inoculated region 0.115 / 0.0803 / 0.171; leaf margin 0.0162 / 0 / 0.0200; systemic leaves 0 / 0 / 0.
With GGAAACCGCGAAGGC (pool 0.240) the assay gave inoculated region 0.0655 / 0.0964 / 0.0381; leaf margin 0 / 0 / 0.0401; systemic leaves 0 / 0 / 0.
With GGAAACCGGCCAUUC (pool 0.176) the assay gave inoculated region 0.0819 / 0.0643 / 0.133; leaf margin 0 / 0 / 0; systemic leaves 0 / 0 / 0.
With GGAAACCGGUACUUC (pool 0.160) the assay gave inoculated region 0.360 / 0.209 / 0.514; leaf margin 0.129 / 0.0668 / 0.160; systemic leaves 0.0322 / 0.0454 / 0.0228.
With GGAAACCGUCAUUGC (pool 0.192) the assay gave inoculated region 0.278 / 0.321 / 0.495; leaf margin 0.0647 / 0.111 / 0.160; systemic leaves 0.0322 / 0.106 / 0.0684.
With GGAAACCGCUAACGC (pool 0.304) the assay gave inoculated region 0.115 / 0.0482 / 0.114; leaf margin 0 / 0 / 0.0200; systemic leaves 0 / 0 / 0.
With GGAAACCGUCGCGCC (pool 0.240) the assay gave inoculated region 0.164 / 0.112 / 0.0762; leaf margin 0.0162 / 0 / 0; systemic leaves 0 / 0 / 0.
With GGAAACCGGAACUUC (pool 0.224) the assay gave inoculated region 0.295 / 0.369 / 0.438; leaf margin 0.0808 / 0.0445 / 0.0601; systemic leaves 0.0161 / 0 / 0.
With GGAAACCGCGAGUCC (pool 0.224) the assay gave inoculated region 0.328 / 0.273 / 0.457; leaf margin 0.0485 / 0.0445 / 0.120; systemic leaves 0.0322 / 0.0454 / 0.137.
With GGAAACCGGCCGGAC (pool 0.176) the assay gave inoculated region 0.197 / 0.145 / 0.171; leaf margin 0 / 0 / 0.0200; systemic leaves 0 / 0 / 0.
With GGAAACCGUUAUUAC (pool 0.160) the assay gave inoculated region 0.311 / 0.321 / 0.457; leaf margin 0.0647 / 0.111 / 0.100; systemic leaves 0 / 0 / 0.
With GGAAACCGUUUGGAC (pool 0.240) the assay gave inoculated region 0.180 / 0.209 / 0.362; leaf margin 0.146 / 0.0668 / 0.120; systemic leaves 0.0644 / 0 / 0.0228.
With GGAAACCGGGGAAAC (pool 0.192) the assay gave inoculated region 0.147 / 0.0643 / 0.0762; leaf margin 0.0323 / 0 / 0; systemic leaves 0 / 0 / 0.
With GGAAACCGGAAAUGC (pool 0.288) the assay gave inoculated region 0.0491 / 0.0161 / 0.0762; leaf margin 0 / 0 / 0; systemic leaves 0 / 0 / 0.
With GGAAACCGACUGAGC (pool 0.272) the assay gave inoculated region 0.0983 / 0.0482 / 0.114; leaf margin 0 / 0 / 0; systemic leaves 0 / 0 / 0.
With GGAAACCGCGCCACC (pool 0.304) the assay gave inoculated region 0.0491 / 0.0964 / 0.114; leaf margin 0.0162 / 0 / 0.0200; systemic leaves 0 / 0 / 0.
With GGAAACCGCCGGGGC (pool 0.240) the assay gave inoculated region 0.213 / 0.0964 / 0.0571; leaf margin 0 / 0 / 0; systemic leaves 0 / 0 / 0.
With GGAAACCGCGUGAGC (pool 0.224) the assay gave inoculated region 0.0983 / 0.129 / 0.248; leaf margin 0 / 0 / 0; systemic leaves 0.0161 / 0 / 0.
With GGAAACCGUCAGUGC (pool 0.272) the assay gave inoculated region 0.459 / 0.434 / 0.495; leaf margin 0.129 / 0.690 / 0.120; systemic leaves 0.0483 / 0.0151 / 0.205.
With GGAAACCGUUGCGCC (pool 0.208) the assay gave inoculated region 0.197 / 0.0643 / 0.0571; leaf margin 0 / 0 / 0; systemic leaves 0 / 0 / 0.
With GGAAACCGGAGAACC (pool 0.208) the assay gave inoculated region 0.147 / 0.0964 / 0.0571; leaf margin 0.0162 / 0.0223 / 0; systemic leaves 0 / 0 / 0.
With GGAAACCGAGUUCCC (pool 0.288) the assay gave inoculated region 0.115 / 0.0964 / 0.228; leaf margin 0 / 0 / 0.0200; systemic leaves 0 / 0 / 0.
With GGAAACCGACGCACC (pool 0.256) the assay gave inoculated region 0.0328 / 0.0803 / 0.0762; leaf margin 0.0162 / 0 / 0.0200; systemic leaves 0 / 0 / 0.
With GGAAACCGGAAUCUC (pool 0.352) the assay gave inoculated region 0.0491 / 0.0643 / 0.0762; leaf margin 0.0162 / 0 / 0.0200; systemic leaves 0.0161 / 0 / 0.

Extract of 2 entries:

GGAAACCGACUGAGC (pool 0.272): inoculated region 0.0983 / 0.0482 / 0.114; leaf margin 0 / 0 / 0; systemic leaves 0 / 0 / 0.
GGAAACCGCCGGGGC (pool 0.240): inoculated region 0.213 / 0.0964 / 0.0571; leaf margin 0 / 0 / 0; systemic leaves 0 / 0 / 0.

Data from the supplement of Wu et al. 2024, doi:10.1371/journal.ppat.1012142.